A mixed list of measured activities; the numbers were collected in NIAID ChemDB.

Shared fields: tests in culture; species: Mycobacterium smegmatis; read-out: MIC

Conditions beyond the fields shown may differ between rows. An empty or dashed field is not shown. a–b is a range or a potency band.

smiles	strain or isolate	read by	result
Cc1[nH]c2ccccc2c1C1=C(Br)C(=O)NC1=O	SG987		25 µg/mL
CCO/N=C(/CN1CCN(c2c(F)cc3c(=O)c(C(=O)O)cn(C4CC4)c3c2OC)CC1)c1cc2ccccc2oc1=O	CMCC 93202		6.25 µg/mL
CCCCCCCCCCCCc1ccc(NC(=O)C2=CCN(C)[C@@H]([C@H](O[C@@H]3O[C@H](CN)[C@@H](O)[C@H]3O)[C@H]3O[C@@H](n4ccc(=O)[nH]c4=O)[C@H](O)[C@@H]3O)C(=O)N2C)cc1	ATCC 607		6.25 µg/mL
CCCCCCCCCCCC1OC(c2ccncc2)=NN1C(C)=O		agar	6 µg/mL
C=C[C@]1(C)C2=C3c4c([nH]c5cccc(c45)C(C)(C)[C@H]3C[C@H]1Cl)C(C)(C)C(C#N)=C2		resazurin	49.7 µM
O=C1CC(c2cccc(F)c2)Nc2ccccc21	ATCC 607		62.5 µg/mL
CCCCCCCCCCCCCCCCCC#CC(=O)O	mc2155		>300 µg/mL
O=C(O)c1c2n(c3cc(N4CCN(Cc5ccc6c(c5)OCO6)CC4)c([N+](=O)[O-])cc3c1=O)CS2	ATCC 14468 MC2	agar	6.3 µM
COC1=C2C(=O)O[C@@]13C[C@@H](C)C=C[C@H]3/C=C/C(=O)[C@@H](C)C[C@@H](C)C2=O	mc2155		>80 µg/mL
Clc1ccc(-c2nn(-c3ccc(Cl)cc3)cc2C2CC(c3ccc(-c4ccccc4)cc3)=NN2)cc1		resazurin	15.6 µg/mL
CO/N=C(/CN1CCN(c2c(F)cc3c(=O)c(C(=O)O)cn(C4CC4)c3c2OC)CC1C)c1cc2ccc(OC)cc2oc1=O	CMCC 93202		6.25 µg/mL
CCCCCCCCCCCOc1cc(-c2ccccc2F)nc2ccccc12	ATCC 607		500 µg/mL
CO/N=C(/CN1CCN(c2c(F)cc3c(=O)c(C(=O)O)cn(C4CC4)c3c2OC)CC1)c1cc2ccccc2oc1=O	CMCC 93202		6.25 µg/mL
NNC(=O)c1ccncc1	ATCC 14468	MTT / broth dilution	>1024 µg/mL
C=C/C(C)=C/[C@@]1(C)SC(=O)C(C)=C1O	mc2155		75 µg/mL
C[C@@H]1CN(c2c(F)c(N)c3c(=O)c(C(=O)O)cn(C4CC4)c3c2F)C[C@H](C)N1	ATCC 607	broth dilution / visual reading	0.1 µg/mL
CCC1OC(c2ccncc2)=NN1C(C)=O		agar	>100 µg/mL
NNC(=O)c1ccncc1		resazurin	15.6 µg/mL
CC(C)(C)OC(=O)NC1C2CN(c3cc4c(cc3F)c(=O)c(C(=O)O)c3n4CS3)CC21	ATCC 14468 MC2	agar	55.87 µM
CCCCCCCCCCCCCCCCCCCC#CC(=O)O	mc2155		>300 µg/mL
Cc1ccc(-c2nn(-c3ccc(Cl)cc3)cc2C2CC(c3ccc4c(c3)CCO4)=NN2)cc1		resazurin	500 µg/mL
Cc1c(CN2CCN(C)CC2)cc(-c2ccc(Cl)cc2)n1-c1ccc(Cl)cc1	6 strains		3.1–25 µg/mL
NNC(=O)c1ccncc1	mc2155		40 µg/mL
CO/N=C(/CN1CCN(c2cc3c(cc2F)c(=O)c(C(=O)O)cn3C2CC2)CC1)c1cc2ccc(OC)cc2oc1=O	CMCC 93202		12.5 µg/mL
CCCCCCCCCCCCCCOc1cc(-c2ccccc2F)nc2ccccc12	ATCC 607		500 µg/mL
CCCCCCCCC(O)[C@@H]1O[C@H]([C@H](O)C(=O)O)C(O)C1O	mc2155	absorbance	0.16 µM
CCc1cc(C(N)=S)ccn1	MC^2 802		30 µg/mL
Cc1ccc(-c2nn(-c3ccc(Cl)cc3)cc2C2CC(c3ccc(C)o3)=NN2)cc1		resazurin	62.5 µg/mL
CCCCCCCC/C=C\CCCCCCCC(=O)O	mc2155		>200 µg/mL
CCCCCCCCOCC(COCCCCCCCC)[C@@H]1O[C@H]([C@H](O)CO)C(O)C1O	mc2155	absorbance	1 µM
O=C(O)c1c2n(c3cc(N4CCC5(CC4)OCCO5)c(F)cc3c1=O)CS2	ATCC 14468 MC2	agar	63.71 µM
CCCCCCCCC(O)[C@@H]1O[C@H]([C@H](O)CNC(=O)CCCC)C(O)C1O	mc2155	absorbance	1.2 µM
COc1ccc(CC2C3=C(CCCC3)CCN2c2cc3c(cc2F)c(=O)c(C(=O)O)c2n3CS2)cc1	ATCC 14468 MC2	agar	98.69 µM
CCn1cc(C(=O)O)c(=O)c2ccc(C)nc21	mc2155		256 µg/mL
Cc1ccccc1NC(=O)CCc1[nH]c2ccccc2c1C1=C(Br)C(=O)NC1=O	SG987		25 µg/mL
CO[C@H]1[C@@H](O)[C@H](n2ccc(=O)[nH]c2=O)O[C@@H]1[C@@H](O[C@H]1OC(C(=O)N[C@H]2CCC[C@@H](C)NC2=O)=C[C@H](O)[C@@H]1O)C(N)=O	mc2155	broth dilution	16 µg/mL
CCCc1[nH]c2ccccc2c1C1=C(Br)C(=O)NC1=O	SG987		8.3 µg/mL
COc1ccc2cc(C(=O)CN3CCN(c4cc5c(cc4F)c(=O)c(C(=O)O)cn5C4CC4)CC3)c(=O)oc2c1	CMCC 93202		12.5 µg/mL
CCCCCCCC/C=C/CCCCCCCC(=O)OCC(COP(=O)(O)OCC1C(O)C(O)C(O)C(CP(=O)(O)O)C1O)OC(=O)CCCCCCC/C=C/CCCCCCCC		broth dilution	>2500 µM
Cc1ccc(-c2nn(-c3ccc(Cl)cc3)cc2C2CC(c3ccc(-c4ccccc4)cc3)=NN2)cc1		resazurin	500 µg/mL
CCCCCCCCCCCCC#CCC(=O)O	mc2155		20 µg/mL
COc1c(N2CCN(CC(=O)c3cc4ccccc4oc3=O)CC2)c(F)cc2c(=O)c(C(=O)O)cn(C3CC3)c12	CMCC 93202		6.25 µg/mL
CCCCCc1[nH]c2ccccc2c1C1=C(Br)C(=O)NC1=O	SG987		0.56 µg/mL
O=C(O)c1c2n(c3cc(N4CCC(N5CCCCC5)CC4)c(F)cc3c1=O)CS2	ATCC 14468 MC2	agar	120 µM
Cc1ccc(C2=NNC(c3cn(-c4ccc(Cl)cc4)nc3-c3cccs3)C2)o1		resazurin	125 µg/mL
CN1CCN(c2cc3c(cc2[N+](=O)[O-])c(=O)c(C(=O)O)c2n3CS2)CC1c1ccccc1	ATCC 14468 MC2	agar	52.25 µM
CCCCCCCCC(O)[C@@H]1O[C@H](CO)C(O)C1O	mc2155	absorbance	1.7 µM
CCCCCCCCCCCCCOc1cc(-c2ccccc2F)nc2ccccc12	ATCC 607		250 µg/mL